Anti-infective test results gathered from many reports (values: NIAID ChemDB through PubChem).

Common to all: growth or infection tests; species: HIV-1; cell line: MT-4; read-out: EC50

Rows are shuffled and stem from different studies.

| smiles | strain or isolate | mutations | read by | conditions | result |
|---|---|---|---|---|---|
| CC(C)CN(C[C@@H](O)[C@H](Cc1ccccc1)NC(=O)O[C@H]1CO[C@H]2OCC[C@H]21)S(=O)(=O)c1ccc(-c2coc(-c3cccs3)n2)cc1 | LAI |  | cytopathic effect / MTT |  | 0.01 µM |
| C=C(C)[C@]1(O)C[C@@H](C)[C@@]2(O)[C@H]([C@H]1OC(=O)/C=C/C=C/CCCCC)[C@@H]1O[C@]1(CO)[C@@H](O)[C@]1(O)C(=O)C(C)=C[C@H]12 | IIIB |  | MTT |  | 0.01593 µM |
| CCOC(=O)CCC(NC(=O)c1ccc(OCc2nc3cc(C(F)(F)F)ccc3n3cccc23)cc1)C(=O)OCC |  |  | cytopathic effect / MTT |  | >100 µM |
| Cc1nc2ccccc2c(-c2cc(F)c3c(c2C)CCCO3)c1[C@H](OC(C)(C)C)C(=O)O | NL4-3 | T124N | luminescence |  | 0.021 µM |
| O=C1c2ccccc2N(Cc2ccccc2)S(=O)(=O)N1Cc1ccc(Cl)cc1 | IIIB |  | p24 |  | 18.4 µM |
| N#Cc1cc(Cl)cc(Oc2c(Cl)ccc(OCc3[nH]nc4ncccc34)c2F)c1 | HXB2 |  | cytopathic effect / MTT / absorbance | 10% FBS | 0.008 µM |
| CN1C/C(=C\c2ccc([N+](=O)[O-])c(O)c2)C(=O)/C(=C/c2ccc([N+](=O)[O-])c(O)c2)C1 |  |  | cytopathic effect / MTT |  | >1.9 µM |
| Cc1cc(C#N)cc(C)c1Oc1nc(NC2CCC(NCc3cccc(C(F)(F)F)c3)CC2)nc2ccsc12 | RES056 |  | MTT |  | >707 µM |
| S=C(Nc1nc2ccccc2s1)NC1CC2CCC1C2 | IIIB |  | MTT |  | >46 µM |
| COc1cc(Cc2cnc(/N=C3\C(=O)N(CN4CCN(c5ccccc5)CC4)c4ccc(C)cc43)nc2N)cc(OC)c1OC |  |  | cytopathic effect |  | >116.1 µM |
| CC(=O)c1ccc(-c2nc3ncc(Br)cc3[nH]2)cc1 | IIIB |  | MTT |  | >28 µM |
| COc1cccc(N2CCN(CN3C(=O)/C(=N\c4ncc(Cc5cc(OC)c(OC)c(OC)c5)c(N)n4)c4cc(C)ccc43)CC2)c1 |  |  | cytopathic effect |  | >32.1 µM |
| CC(C)CN(C[C@@H](O)[C@H](Cc1cccc(F)c1)NC(=O)O[C@H]1C2COC3OCC1C3C2)S(=O)(=O)c1ccc2nc(NC3CC3)sc2c1 | NL4-3 |  | p24 |  | 0.000061 µM |
| FC(F)(F)c1ccc2c(c1)nc(CCl)c1cccn12 |  |  | cytopathic effect / MTT |  | >100 µM |
| CC(C)CN(C[C@@H](O)[C@H](Cc1ccccc1)NC(=O)O[C@H]1CO[C@H]2OCC[C@H]21)S(=O)(=O)c1ccc(C(N)=O)cc1 | LAI |  | p24 / luminescence |  | 0.038 µM |
| CCCN1C(=O)N(CCC)N(C(=O)C(C)(C)C)C[C@@H](O)[C@H]1Cc1ccccc1 | IIIB |  | cytopathic effect |  | 6.8 µM |
| Nc1c(N=Cc2ccc(C(F)(F)F)c([N+](=O)[O-])c2)cc2cccnc2c1Cl | IIIB |  | MTT |  | 20 µM |
| Cc1c(-c2c([C@H](OC(C)(C)C)C(=O)O)cnc3ccccc23)cc(F)c2c1CCCO2 |  |  |  |  | 0.018 µM |
| Cc1cn([C@H]2C[C@H](N=[N+]=[N-])[C@@H](CO)O2)c(=O)[nH]c1=O | IIIB | EFV-resistant | MTT |  | 0.02 µM |
| CCOC(=O)CC1C/C(=C\c2cc(O)c(O)c(O)c2)C(=O)/C(=C/c2cc(O)c(O)c(O)c2)C1 |  |  | cytopathic effect / MTT |  | 30 µM |
| COc1ccc(Nc2nc3ccccc3n3cccc23)cc1OC |  |  | cytopathic effect / MTT |  | >31 µM |
| O=C1c2ccccc2N(Cc2ccccc2-c2ccccc2)S(=O)(=O)N1Cc1ccccc1 | IIIB |  | p24 |  | 12 µM |
| COc1cc(Nc2nc3ccccc3n3cccc23)cc(OC)c1OC |  |  | cytopathic effect / MTT |  | >100 µM |
| Cc1cc(C#N)cc(C)c1Oc1nc(NC2CCC(NCc3ccc([N+](=O)[O-])cc3)CC2)nc2ccsc12 | RES056 |  | MTT |  | ≥5.44 µM |
| CCn1c(C)c(C(=O)OC)c(C(=O)OC)c1Cc1ccccc1 | A17 | RT-K103N Y181C | cytopathic effect / MTT |  | >10 µM |
| C=C(C)[C@]12C[C@@H](C)[C@]34OC5(CCCCCCC[C@H](C)[C@@H]([C@H](C)C(=O)O)[C@@H]3C(=O)[C@H](O)[C@@]3(CO)O[C@H]3[C@H]4[C@H]1O5)O2 | NL4-3 |  | luciferase |  | 9.22 µM |
| COc1cc(Cc2cnc(/N=C3\C(=O)N(CN4CCN(c5c(OC)cc6c(c5F)c(=O)c(C(=O)O)cn6C5CC5)CC4C)c4ccc(C)cc43)nc2N)cc(OC)c1OC |  |  | cytopathic effect |  | 21.2 µM |
| Cc1cn([C@H]2O[C@H](CO)[C@]3(N=[N+]=[N-])CO[C@@H]23)c(=O)[nH]c1=O | IIIB |  | cytopathic effect / MTT |  | >300 µM |
| Cc1cc(C#N)cc(C)c1Oc1nc(NC2CCC(NCc3ccccc3)CC2)nc2ccsc12 | IIIB | NNRTI-resistant (RT Y181C) | MTT |  | >2.98 µM |
| CCCN1C(=O)N(CCC)N(C(=O)C(C)C)C[C@@H](O)[C@H]1Cc1ccccc1 | IIIB |  | cytopathic effect |  | 2.9 µM |
| O=S1(=O)N=C(OCc2ccccc2)c2ccccc2N1Cc1ccc(Cl)c(Cl)c1 | IIIB |  | p24 |  | >125 µM |
| COc1cnc(CN=Cc2c(O)[nH]c3ccc(S(=O)(=O)N(CC(C)C)C[C@@H](O)[C@H](Cc4ccccc4)NC(=O)O[C@H]4CO[C@H]5OCC[C@H]54)cc23)c(OC)c1C | HXB2 Recombinant |  | cytopathic effect / MTT |  | 0.03 µM |
| Cc1cc(/C=C/C#N)cc(C)c1Oc1nc(NC2CCN(Cc3ccccc3C#N)CC2)nc2ccsc12 | IIIB | NNRTI-resistant (RT Y188L) | MTT |  | 0.124 µM |
| O=C(c1ccco1)N1C[C@@H](O)[C@@H](Cc2ccccc2)N(Cc2ccc(O)cc2)C(=O)N1Cc1ccc(O)cc1 | IIIB |  | cytopathic effect |  | 1.92 µM |
| COc1ccc(OCc2nc3ccccc3n3cccc23)cc1 |  |  | cytopathic effect / MTT |  | >16 µM |
| Cc1cc(/C=C/C#N)cc(C)c1Oc1nc(NC2CCN(Cc3ccc(C#N)cc3)CC2)nc2ccsc12 | IIIB | NNRTI-resistant (RT Y181C) | MTT |  | 0.031 µM |
| ClCc1nc2ccccc2n2cccc12 |  |  | cytopathic effect / MTT |  | >100 µM |
| CCn1nccc1-c1ccc(S(=O)(=O)N(CC(C)C)C[C@@H](O)[C@H](Cc2ccccc2)NC(=O)COc2c(C)cccc2C)cc1 | LAI |  | cytopathic effect / MTT |  | 6.31 µM |
| O=C1c2ccccc2N(CC2CCCCC2)S(=O)(=O)N1Cc1ccccc1 | IIIB |  | p24 |  | 8.5 µM |
| CC1(C)CC=C(c2cn(-c3nccc(C(=O)NC4CCC(N5CC6CCC(C5)O6)CC4)n3)c3ccc(F)c([C@H](OC(C)(C)C)C(=O)O)c23)CC1 | NL4-3 | N222K | luminescence |  | 0.0052 µM |
| CCOC(=O)c1ccc(Nc2nc3cc(C(F)(F)F)ccc3n3cccc23)cc1 |  |  | cytopathic effect / MTT |  | >100 µM |
| CCCC(CCC)C(=O)N1C[C@@H](O)[C@@H](Cc2ccccc2)N(Cc2ccc(O)cc2)C(=O)N1Cc1ccc(O)cc1 | IIIB |  | cytopathic effect |  | 0.33 µM |
| C=CS(=O)(=O)N1CCC(NS(=O)(=O)c2c(C(N)=O)[nH]c3ccc(Br)cc23)C1 | IIIB | Y181C | MTT |  | 2.36 µM |
| CC(C)CN(C[C@@H](O)[C@H](Cc1ccccc1)NC(=O)O[C@H]1CO[C@H]2OCC[C@H]21)S(=O)(=O)c1ccc(-c2csc(N)n2)cc1 | LAI |  | cytopathic effect / MTT |  | 0.003 µM |
| C=C(C)[C@]12C[C@@H](C)[C@]34OC5(CCCCCCC[C@H](C)[C@@H]([C@H](C)C(=O)OC)[C@@H]3C(=O)[C@H](O)[C@@]3(CO)O[C@H]3[C@H]4[C@H]1O5)O2 | NL4-3 |  | luciferase |  | 1.08 µM |
| OC1/C(=C/c2ccc(Cl)c(Cl)c2)CSC/C1=C\c1ccc(Cl)c(Cl)c1 |  |  | cytopathic effect / MTT |  | >119 µM |
| CCCc1nc(-c2ccc(S(=O)(=O)N(CC(C)C)C[C@@H](O)[C@H](Cc3ccccc3)NC(=O)O[C@H]3CO[C@H]4OCC[C@H]43)cc2)co1 |  | PR-L010F M046I M071V I084V | cytopathic effect / MTT |  | 0.876 µM |
| Cc1cc(/C=C/C#N)cc(C)c1Oc1nc(NC2CCN(Cc3ccccc3Cl)CC2)nc2ccsc12 | IIIB | NNRTI-resistant (RT F227L V106A) | MTT |  | 0.0723 µM |
| CC(NC(=S)Nc1nc2ccccc2s1)c1ccccc1 | IIIB | A17 | MTT |  | >38 µM |
| Cc1cccc(C)c1OCC(=O)N[C@@H](Cc1ccccc1)[C@H](O)CN(CC(C)C)S(=O)(=O)c1ccc(-c2ccnn2C(C)(C)C)cc1 | LAI |  | cytopathic effect / MTT |  | 6.31 µM |
| COc1cc(Cc2cnc(/N=C3\C(=O)N(CN4CCCC4)c4ccc(C)cc43)nc2N)cc(OC)c1OC |  |  | cytopathic effect |  | >124 µM |
| CC(c1ccccc1)N1C(=O)CS/C1=N\c1nc2ccccc2s1 | IIIB |  | MTT |  | >84 µM |

Again, the opening 4 rows:

smiles	strain or isolate	mutations	read by	conditions	result
CC(C)CN(C[C@@H](O)[C@H](Cc1ccccc1)NC(=O)O[C@H]1CO[C@H]2OCC[C@H]21)S(=O)(=O)c1ccc(-c2coc(-c3cccs3)n2)cc1	LAI		cytopathic effect / MTT		0.01 µM
C=C(C)[C@]1(O)C[C@@H](C)[C@@]2(O)[C@H]([C@H]1OC(=O)/C=C/C=C/CCCCC)[C@@H]1O[C@]1(CO)[C@@H](O)[C@]1(O)C(=O)C(C)=C[C@H]12	IIIB		MTT		0.01593 µM
CCOC(=O)CCC(NC(=O)c1ccc(OCc2nc3cc(C(F)(F)F)ccc3n3cccc23)cc1)C(=O)OCC			cytopathic effect / MTT		>100 µM
Cc1nc2ccccc2c(-c2cc(F)c3c(c2C)CCCO3)c1[C@H](OC(C)(C)C)C(=O)O	NL4-3	T124N	luminescence		0.021 µM

ECn: concentration that inhibits the pathogen or its effect by n%. Blank or dashed fields: not listed here.